Results of unrelated studies side by side (data: NIAID ChemDB).

Common to all: whole-cell or culture tests; species: HIV-1; read by: syncytia; read-out: EC50

ECn is the concentration giving n% inhibition of infection, replication or growth. Conditions beyond the fields shown may differ between rows. An empty or dashed field is not shown.

SMILES	conditions	cell line	strain	mutations	result
N#Cc1cccc2c1oc1ccccc12		C8166			46.7 µg/mL
NC(N)=NCCC[C@H](N)C(=O)NC[C@@H]1OC(O[C@H]2[C@@H](O)[C@H](O[C@@H]3[C@@H](O)[C@H](NC(=O)[C@@H](N)CCCN=C(N)N)C[C@H](NC(=O)[C@@H](N)CCCN=C(N)N)[C@H]3O[C@H]3O[C@H](CNC(=O)[C@@H](N)CCCN=C(N)N)[C@@H](O)[C@H](O)[C@H]3NC(=O)[C@@H](N)CCCN=C(N)N)O[C@@H]2CO)[C@H](NC(=O)[C@@H](N)CCCN=C(N)N)[C@@H](O)[C@@H]1O		MT-2	CLADE C		0.5 µM
Nc1nc(NC2CC2)c2ncn([C@H]3C=C[C@@H](COP4(=O)OCc5cc(Cl)ccc5O4)C3)c2n1		CEM	IIIB		3.5 µM
O=[N+]([O-])c1ccc2oc3cc(F)ccc3c2c1		C8166			21.8 µg/mL
COc1c(O)c(I)c2c(c1OC)-c1c(c(I)c(O)c(OC)c1OC)C[C@H](C)[C@H](C)C2		SupT1 + Sup-T1	IIIB		0.16 µM
COC(=O)c1ccc(COP(=O)(OCc2ccc(C(=O)OC)cc2)OC[C@H]2O[C@@H](n3cc(C)c(=O)[nH]c3=O)C[C@@H]2N=[N+]=[N-])cc1		C8166	IIIB		0.016 µM
Cc1cc(C)cc(Sc2c(C(C)C)c(=O)[nH]c(=S)n2COCCO)c1		CEM	IIIB	RT-E138K	0.01 µM
Cc1ccnc2c1NC(=O)c1cccnc1N2C1CC1		CEM	IIIB		0.03 µM
Cc1ccnc2c1NC(=O)c1cccnc1N2C1CC1		MT-4	MN		0.02 µM
Cc1cn([C@H]2C[C@H](N=[N+]=[N-])[C@@H](CO)O2)c(=O)[nH]c1=O		CEM	IIIB		0.008 µM
CN1C(=O)N(Cc2ccccc2)S(=O)(=O)c2cscc21		MT-4	MN		65.8 µM
COc1ccc2oc3ccc([N+](=O)[O-])cc3c2c1		C8166			8 µg/mL
NC(=O)CN1C(=O)N(Cc2ccccc2)c2cscc2S1(=O)=O		CEM	IIIB		>284.5 µM
Nc1nc(N)c(C=O)c(OCCOCP(=O)(O)O)n1		CEM	IIIB		1.3 µg/mL
CCN1C(=O)N(Cc2ccccc2)S(=O)(=O)c2cscc21		CEM	IIIB	RT-V106A	>310 µM
Cc1cn([C@@H]2O[C@H](CO[Si](C)(C)C(C)(C)C)[C@@H](O)[C@H]2O[Si](C)(C)C(C)(C)C)c(=O)n(CC(=O)ON)c1=O		CEM	IIIB		>2 µM
Nc1nc2c(ncn2[C@H]2C[C@@H](O)[C@H](CO)O2)c(=O)[nH]1		CEM	BRU		>100 µM
C[C@H](Cn1cnc2c(N)ncnc21)OCP(=O)(O)O		CEM	IIIB		1.1 µg/mL
N#Cc1cccc2c1oc1cc(F)ccc12		C8166			18.57 µg/mL
O=c1ccn([C@@H]2O[C@@H](CO)[C@H](O)[C@H]2O)c(=O)[nH]1		CEM	BRU		500 µM
CCCCCCCCCCCCOP(=O)(O)OC[C@H]1O[C@@H](n2cc(C)c(=O)[nH]c2=O)C[C@@H]1N=[N+]=[N-]		CEM + CEM/O	IIIB		0.31 µM
O=C1N(Cc2ccccc2)c2cscc2S(=O)(=O)N1Cc1ccccc1		CEM	IIIB	RT-L100I	≥10 µM
Nc1nc2c(ncn2COCCO)c(=O)[nH]1		CEM	IIIB		>250 µM
Cc1cn([C@H]2C[C@H](N=[N+]=[N-])[C@@H](CO[Si](C)(C)C(C)(C)C)O2)c(=O)n(CC(=O)O)c1=O		CEM	IIIB		>50 µM
C[C@@H]1[C@H](O)[C@@H](C)/C=C/C=C/C=C/C=C/C=C/C=C/C=C/[C@H](O[C@@H]2O[C@H](C)[C@@H](O)[C@H](N)[C@@H]2O)CC2O[C@](O)(CC(O)C(O)CCC(O)CC(O)CC(O)CC(=O)O[C@H]1C)CC(O)C2C(=O)O.O=S(=O)(O)O		MOLT-4	IIIB		16 µg/mL
CCCCCCCCCCCCCCCCOP(=O)(O)OC[C@H]1O[C@@H](n2cc(C)c(=O)[nH]c2=O)C[C@@H]1N=[N+]=[N-]		CEM + CEM/O	IIIB		0.17 µM
Cc1cn([C@H]2C[C@H](N=[N+]=[N-])[C@@H](COP(=O)(OCc3ccc(C(=O)OC(C)(C)C)cc3)OCc3ccc(C(=O)OC(C)(C)C)cc3)O2)c(=O)[nH]c1=O		C8166	IIIB		8 µM
Cc1cn([C@H]2C[C@H](N=[N+]=[N-])[C@@H](CN3C(=O)c4ccc([N+](=O)[O-])cc4C3=O)O2)c(=O)[nH]c1=O		CEM	IIIB		29.9 µM
Nc1ccn([C@H]2CC[C@@H](CO)O2)c(=O)n1		CEM	IIIB	RT-E138K	0.09 µM
CC(C)=CCN1Cc2cc(Cl)cc3[nH]c(=S)n(c23)C[C@@H]1C		CEM	HXB2		0.09 µg/mL
Cc1cn([C@H]2C[C@H](N=[N+]=[N-])[C@@H](CN3C(=O)c4c(F)c(F)c(F)c(F)c4C3=O)O2)c(=O)[nH]c1=O		CEM	IIIB		2.3 µM
Nc1ncnc2c1ncn2[C@H]1C=C[C@@H](CO)O1		MOLT-4/C8 + MOLT-4	IIIB		30 µM
CC(C)=CCN1Cc2cc(Cl)cc3[nH]c(=S)n(c23)C[C@@H]1C		CEM	IIIB	RT-E138K	0.31 µM
Cc1cn([C@@H]2O[C@H](CO[Si](C)(C)C(C)(C)C)[C@@H](O)[C@H]2O[Si](C)(C)C(C)(C)C)c(=O)n(CC(=O)O)c1=O		CEM	IIIB		4.5 µM
Cc1cn([C@H]2C[C@H](N=[N+]=[N-])[C@@H](COP(=O)(OCc3ccccc3)OCc3ccccc3)O2)c(=O)[nH]c1=O		JM	GB8		0.0094 µM
COC(=O)[C@H](C)NP(=O)(OC[C@@H]1O[C@H](n2ccc(N)nc2=O)CS1)Oc1ccccc1		CEM	IIIB		2.5 µM
Cc1cn([C@H]2C[C@H](N=[N+]=[N-])[C@@H](CN3C(=O)c4c(Br)c(Br)c(Br)c(Br)c4C3=O)O2)c(=O)[nH]c1=O		CEM	IIIB		1.7 µM
O=[N+]([O-])c1ccc2oc3ccccc3c2c1		C8166			36.39 µg/mL
NC(=O)c1nn([C@@H]2O[C@H](CO)[C@@H](O)[C@H]2O)cc1Br		C8166	IIIB		<12.2 µM
CCN1c2ncccc2-c2nccn2-c2ccc(N(C)C)nc21	7 d	C8166			<0.1 µM
CCCCC[C@H](O)/C=C/C1=C(CCCCCCC(=O)O)C(=O)CC1					>40 µM
COC(=O)[C@H](C)NP(=O)(OC[C@@H]1CC[C@H](n2cnc3c(N)ncnc32)O1)Oc1ccccc1		CEM	IIIB		0.016 µM
Cc1cccc2c1OP(=O)(OC[C@@H]1C=C[C@H](n3cnc4c(NC5CC5)nc(N)nc43)C1)OC2		CEM	IIIB		0.7 µM
CC(C)=CCN1Cc2cc(Cl)cc3[nH]c(=S)n(c23)C[C@@H]1C		CEM	MN-QUIN(RT-G190E)	RT-G190E	16 µM
Nc1ncnc2c1ncn2[C@H]1CC[C@@H](CO)O1		CEM	IIIB		3.7 µM
Cc1cn([C@@H]2O[C@H](CO[Si](C)(C)C(C)(C)C)C3(OS(=O)(=O)C=C3N)[C@H]2O[Si](C)(C)C(C)(C)C)c(=O)n(C)c1=O		CEM	IIIB		0.07 µM
CC(C)(C)[Si](C)(C)OC[C@H]1O[C@@H](n2ccc(=O)[nH]c2=O)[C@H](O[Si](C)(C)C(C)(C)C)C12OS(=O)(=O)C=C2N		CEM	IIIB		0.13 µM
CC(C)Nc1cccnc1N1CCN(C(=O)c2cc3cc(NS(C)(=O)=O)ccc3[nH]2)CC1		CEM	HXB2		0.01 µg/mL
N#CCN1C(=O)N(Cc2cccc(F)c2)S(=O)(=O)c2cscc21		MT-4	NDK		0.6 µM
C#CCN1C(=O)N(Cc2ccccc2)S(=O)(=O)c2cscc21		CEM	IIIB	RT-K103N	>60 µM
Cc1cn([C@H]2C[C@@H](O)[C@H](CO)O2)c(=O)[nH]c1=O		CEM	BRU		>1000 µM
Cc1ccnc2c1NC(=O)c1cccnc1N2C1CC1		C8166	IIIB		0.01125 µM
COc1ccc2c(c1)c1c3c(c4c5ccccc5n(C)c4c1n2CCC#N)C(=O)NC3=O		U1/HIV-1(+PMA) + U1			0.028 µM
CN1C(=O)N(Cc2ccccc2)S(=O)(=O)c2cscc21		CEM	IIIB	RT-Y181C	>324 µM
COc1cccc2c1N(C(=O)OC(C)C)C(CSC)C(=S)N2		CEM	IIIB		0.0007 µg/mL
COc1c(O)c(Br)c2c(c1OC)-c1c(c(Br)c(O)c(OC)c1OC)C[C@H](C)[C@H](C)C2		SupT1 + Sup-T1	IIIB		0.39 µM
Cc1cn([C@H]2C[C@H](N=[N+]=[N-])[C@@H](COP(=O)(OCc3ccc(C(=O)OC(C)C)cc3)OCc3ccc(C(=O)OC(C)C)cc3)O2)c(=O)[nH]c1=O		C8166	IIIB		0.08 µM
O=c1[nH]cnc2c1ncn2[C@H]1CC[C@@H](CO)O1		CEM	IIIB	RT-E138K	10 µM
Cc1cn([C@H]2C[C@H](N=[N+]=[N-])[C@@H](COP(=O)(O)OCc3ccc(C(=O)OC(C)C)cc3)O2)c(=O)[nH]c1=O		JM	GB8		<0.0019 µM
Cc1cn([C@H]2C=C[C@@H](CO)O2)c(=O)[nH]c1=O		CEM	IIIB		0.35 µM
Cc1cn([C@H]2C[C@H](N=[N+]=[N-])[C@@H](CO)O2)c(=O)[nH]c1=O		CEM	IIIB		0.002 µM
COC(=O)[C@H](C)NP(=O)(OC[C@H]1O[C@@H](n2cc(C)c(=O)[nH]c2=O)C[C@@H]1N=[N+]=[N-])Oc1ccccc1		CEM	IIIB		0.06 µM
COC(=O)Cn1c(=O)c(C)cn([C@H]2C[C@H](N=[N+]=[N-])[C@@H](CO[Si](C)(C)C(C)(C)C)O2)c1=O		CEM	IIIB		>10 µM
COc1ccc2c(c1)N(C(=O)OC(C)C)[C@@H](CSC)C(=S)N2		CEM	HXB2	RT-M41L T215Y	0.001 µg/mL
Cc1cn([C@H]2C[C@H](N=[N+]=[N-])[C@@H](CN3C(=O)c4cc(Cl)c(Cl)cc4C3=O)O2)c(=O)[nH]c1=O		CEM	IIIB		5.8 µM
Nc1ncnc2c1ncn2CCOCP(=O)(O)O		CEM/AK- + CEM			7 µM
Cc1cn([C@H]2C[C@H](N=[N+]=[N-])[C@@H](CO)O2)c(=O)[nH]c1=O		C8166	IIIB		<0.268 µg/mL
Nc1ncnc2c1ncn2CCOCP(=O)(O)O		CEM	IIIB		8.5 µM
Nc1nc2c(ncn2[C@@H]2O[C@@H](CO)[C@H](O)[C@H]2O)c(=O)[nH]1		CEM	BRU		>100 µM
CCCCCCCCCCCCCCOCCOP(=O)(O)OC[C@H]1O[C@@H](n2cc(C)c(=O)[nH]c2=O)C[C@@H]1N=[N+]=[N-]		CEM + CEM/O	IIIB		0.119 µM
Cc1ccc2c(c1)COP(=O)(OCCOCn1cnc3c(=O)[nH]c(N)nc31)O2		CEM	IIIB		17 µM
Cc1ccnc2c1NC(=O)c1cccnc1N2C1CC1		CEM	IIIB	RT-Y188H	>37 µM
C#CCN1C(=O)N(Cc2ccccc2)S(=O)(=O)c2cscc21		MT-4	MN		0.3 µM
Nc1nc(NC2CC2)c2ncn([C@H]3C=C[C@@H](COP4(=O)OCc5ccccc5O4)C3)c2n1		CEM	IIIB		0.95 µM
Nc1ccn([C@H]2CC[C@@H](CO)O2)c(=O)n1		C8166	ROD		0.05 µM
N#CCN1C(=O)N(Cc2ccccc2)S(=O)(=O)c2cscc21		CEM	IIIB	RT-Y188H	≥60 µM
CC(C)=CCN1Cc2cc(Cl)cc3[nH]c(=S)n(c23)C[C@@H]1C		CEM	HXB2 (RT E138A S162C E169D T200A L214F) Clinical isolate	RT-E138A S162C E169D T200A L214F	0.031 µM
Cc1occc1C(=S)Nc1ccc(Cl)c(C(=O)OCC(C)C)c1		CEM	IIIB		0.023 µM
CN1CCN(CCCN2c3ccccc3Sc3ccc(N)cc32)CC1		CD4+HeLa + HELA CD4+			5.8 µM
Cc1cn([C@H]2C[C@H](N=[N+]=[N-])[C@@H](CO)O2)c(=O)[nH]c1=O		CEM	IIIB		0.006 µM

The first 9 rows once more:

SMILES,conditions,cell line,strain,mutations,result
N#Cc1cccc2c1oc1ccccc12,,C8166,,,46.7 µg/mL
NC(N)=NCCC[C@H](N)C(=O)NC[C@@H]1OC(O[C@H]2[C@@H](O)[C@H](O[C@@H]3[C@@H](O)[C@H](NC(=O)[C@@H](N)CCCN=C(N)N)C[C@H](NC(=O)[C@@H](N)CCCN=C(N)N)[C@H]3O[C@H]3O[C@H](CNC(=O)[C@@H](N)CCCN=C(N)N)[C@@H](O)[C@H](O)[C@H]3NC(=O)[C@@H](N)CCCN=C(N)N)O[C@@H]2CO)[C@H](NC(=O)[C@@H](N)CCCN=C(N)N)[C@@H](O)[C@@H]1O,,MT-2,CLADE C,,0.5 µM
Nc1nc(NC2CC2)c2ncn([C@H]3C=C[C@@H](COP4(=O)OCc5cc(Cl)ccc5O4)C3)c2n1,,CEM,IIIB,,3.5 µM
O=[N+]([O-])c1ccc2oc3cc(F)ccc3c2c1,,C8166,,,21.8 µg/mL
COc1c(O)c(I)c2c(c1OC)-c1c(c(I)c(O)c(OC)c1OC)C[C@H](C)[C@H](C)C2,,SupT1 + Sup-T1,IIIB,,0.16 µM
COC(=O)c1ccc(COP(=O)(OCc2ccc(C(=O)OC)cc2)OC[C@H]2O[C@@H](n3cc(C)c(=O)[nH]c3=O)C[C@@H]2N=[N+]=[N-])cc1,,C8166,IIIB,,0.016 µM
Cc1cc(C)cc(Sc2c(C(C)C)c(=O)[nH]c(=S)n2COCCO)c1,,CEM,IIIB,RT-E138K,0.01 µM
Cc1ccnc2c1NC(=O)c1cccnc1N2C1CC1,,CEM,IIIB,,0.03 µM
Cc1ccnc2c1NC(=O)c1cccnc1N2C1CC1,,MT-4,MN,,0.02 µM